Measured values from several laboratories, pooled; numbers as filed in NIAID ChemDB.

Common to all: whole-cell or culture tests; agent: Herpes simplex virus 1

An empty or dashed field is not shown. Neighbouring rows are from separate reports. ECn is the concentration giving n% inhibition of infection, replication or growth.

O=C(NCc1ccc(Cl)cc1)c1c[nH]c2ccc(C#CCO)cc2c1=O ; read by: plaque count ; measure: EC50 ; strain or isolate: Patton ; result: 18 µM
O=c1[nH]c(=O)n([C@H]2C[C@H](O)[C@@H](CO)O2)cc1I ; measure: MIC ; strain or isolate: NOL ; result: 1.1 µg/mL
O=C(NCc1ccc(Cl)cc1)c1cn2c3c(cc(CN4CCOCC4)cc3c1=O)OC(c1cccnc1)C2 ; cell line: HFF ; read by: plaque count ; measure: EC50 ; strain or isolate: HL-3 ; result: 9.7 µM
Nc1nc2c(ncn2COCCO)c(=O)[nH]1 ; cell line: VERO ; read by: plaque count ; measure: EC50 ; strain or isolate: C915 TK- ; result: 30 µM
Nc1nc2c(ncn2COCCO)c(=O)[nH]1 ; cell line: HFF ; read by: cytopathic effect ; measure: EC50 ; strain or isolate: F21664 (acyclovir-susceptible) ; result: 0.5 µg/mL
Nc1ccn(C[C@@H](CO)OCP(=O)(O)O)c(=O)n1 ; cell line: MRC-5 ; read by: plaque count ; measure: EC50 ; strain or isolate: SC16 (TK+) ; result: 9.3 µM
Nc1nc2c(ncn2CC[C@@H](O)CO)c(=O)[nH]1 ; cell line: BHK ; read by: plaque count ; measure: EC50 ; strain or isolate: C42 ; result: 14.5 µM
CN1CCN(Cc2cn([C@H]3C[C@H](O)[C@@H](CO)O3)c(=O)[nH]c2=O)CC1 ; cell line: HSF ; read by: cytopathic effect ; measure: EC50 ; strain or isolate: KOS ; result: >200 µg/mL
CC(=O)OCCOCN1C=CC(=O)N(COCCO)S1(=O)=O ; cell line: E6SM ; measure: EC50 ; strain or isolate: VMW1837 (TK-) ; result: >400 µg/mL
Nc1nc2c(ncn2COC(CO)CO)c(=O)[nH]1 ; cell line: VERO H ; read by: plaque count ; measure: EC50 ; strain or isolate: 5538 (DRUG-resistant) ; result: 4.39 µM
OC[C@H]1O[C@H](c2cc(I)c(F)cc2F)C[C@@H]1O ; cell line: E6SM ; read by: cytopathic effect ; measure: EC50 ; strain or isolate: McIntyre ; result: >400 µg/mL
Nc1ncnc2c1ncn2C[C@@H](CO)OCP(=O)(O)O ; cell line: PRK ; read by: cytopathic effect ; measure: EC50 ; strain or isolate: 5 (PAA-resistant) ; result: 0.3 µg/mL
Nc1ncnc2c1ncn2[C@@H]1O[C@H](CO)[C@@H](O)[C@@H]1O ; cell line: RK-13 ; read by: plaque count ; measure: EC50 ; strain or isolate: PFA-resistant ; result: 30 µM
O=c1[nH]c(=O)n([C@H]2C[C@H](O)[C@@H](CO)O2)cc1/C=C/Br ; cell line: PRK ; read by: cytopathic effect ; measure: EC50 ; strain or isolate: McIntyre ; result: 0.02 µg/mL
CCCc1cn([C@H]2C[C@H](O)[C@@H](COP(=O)(O)O)O2)c(=O)[nH]c1=O ; cell line: PRK ; read by: cytopathic effect ; measure: EC50 ; strain or isolate: KOS ; result: 4 µg/mL
CC(=O)OCCOCN1C=CC(=O)N(COCCOC(C)=O)S1(=O)=O ; cell line: E6SM ; measure: EC50 ; strain or isolate: B206 (TK-) ; result: >400 µg/mL
Nc1nc2c(ncn2COCCOP(=O)(O)O[C@@H]2[C@H](O)[C@@H](COP(=O)(O)O[C@@H]3[C@H](O)[C@@H](CO)O[C@H]3n3cnc4c(N)ncnc43)O[C@H]2n2cnc3c(N)ncnc32)c(=O)[nH]1 ; cell line: PRK ; read by: cytopathic effect ; measure: EC50 ; strain or isolate: McIntyre ; result: 1 µg/mL
O=c1[nH]c(=O)n([C@H]2C[C@H](O)[C@@H](CO)O2)cc1I ; cell line: PRK ; read by: cytopathic effect ; measure: EC50 ; strain or isolate: McIntyre ; result: 0.15 µg/mL
Nc1nc2c(ncn2CCC(CO)CO)c(=O)[nH]1 ; cell line: MRC-5 ; read by: plaque count ; measure: EC50 ; strain or isolate: KOS ; result: 0.7 µg/mL
OC[C@H]1O[C@@H](c2cc(C(F)(F)F)c(F)cc2F)C[C@@H]1O ; cell line: E6SM ; read by: cytopathic effect ; measure: EC50 ; strain or isolate: F ; result: >400 µg/mL
[N-]=[N+]=NCc1cn([C@H]2C[C@H](O)[C@@H](CO)O2)c(=O)[nH]c1=O ; cell line: PRK ; read by: cytopathic effect ; measure: EC50 ; strain or isolate: VEO231 ; result: 10 µg/mL
OC[C@H]1O[C@@H](c2cc(C#CBr)c(F)cc2F)C[C@@H]1O ; cell line: E6SM ; read by: cytopathic effect ; measure: EC50 ; strain or isolate: VMW1837 (TK-) ; result: >400 µg/mL
Nc1nc(N)c2ncn([C@H]3CO[C@H](CO)[C@@H](O)C3)c2n1 ; cell line: E6SM ; read by: cytopathic effect ; measure: EC50 ; strain or isolate: KOS ; result: >20 µg/mL
OC[C@H]1O[C@@H](c2cc(C#CI)c(F)cc2F)C[C@@H]1O ; cell line: E6SM ; read by: cytopathic effect ; measure: EC50 ; strain or isolate: KOS ; result: >400 µg/mL
CC(=O)OCCOCN1C=C(C#N)C(N)=NS1(=O)=O ; cell line: E6SM ; measure: EC50 ; strain or isolate: F ; result: >400 µg/mL
Cc1cn([C@@H]2CO[C@H](CO)[C@@H](O)C2)c(=O)[nH]c1=O ; cell line: E6SM ; read by: cytopathic effect ; measure: EC50 ; strain or isolate: KOS ; result: >20 µg/mL
C=Cc1cc([C@H]2C[C@H](O)[C@@H](CO)O2)c(F)cc1F ; cell line: E6SM ; read by: cytopathic effect ; measure: EC50 ; strain or isolate: KOS ; result: >400 µg/mL
OC[C@H]1O[C@H](c2ccc(F)cc2F)C[C@@H]1O ; cell line: E6SM ; read by: cytopathic effect ; measure: EC50 ; strain or isolate: McIntyre ; result: >400 µg/mL
CC(=O)OC[C@H]1[C@H](COC(C)=O)[C@@H](CO)O[C@H]1n1cnc2c(N)ncnc21 ; cell line: MEF ; read by: plaque count ; measure: EC50 ; strain or isolate: Clinical isolate Wilson ; result: 152 µM
Nc1nc2c(ncn2CCCC(CO)CO)c(=O)[nH]1 ; cell line: VERO ; read by: plaque count ; measure: EC50 ; strain or isolate: KJ502 ; result: 0.5 µM
CCOC(=O)C1=CN(COCCO)S(=O)(=O)NC1=O ; cell line: E6SM ; measure: EC50 ; strain or isolate: KOS ; result: >400 µg/mL
COC(CI)c1cc([C@H]2C[C@H](O)[C@@H](CO)O2)c(F)cc1F ; cell line: E6SM ; read by: cytopathic effect ; measure: EC50 ; strain or isolate: KOS (TK-) ; result: >80 µg/mL
Nc1ncnc2c1ncn2[C@@H]1O[C@H](CO)[C@@H](O)[C@H]1OP(=O)(O)OC[C@H]1O[C@@H](n2cnc3c(N)ncnc32)[C@H](OP(=O)(O)OC[C@H]2O[C@@H](n3cc(/C=C/Br)c(=O)[nH]c3=O)C[C@@H]2O)[C@@H]1O ; cell line: PRK ; read by: cytopathic effect ; measure: EC50 ; strain or isolate: McIntyre ; result: 0.07 µg/mL
Cn1cc(C(=O)NCc2ccc(Cl)cc2)c(=O)c2cc(CN3CCOCC3)ccc21 ; cell line: HFF ; read by: plaque count ; measure: EC50 ; strain or isolate: 11360 (ACV-resistant) ; result: 2.9 µM
CCc1cn([C@H]2C[C@H](O)[C@@H](COP(=O)(O)O)O2)c(=O)[nH]c1=O ; cell line: PRK ; read by: cytopathic effect ; measure: EC50 ; strain or isolate: KOS ; result: 1.4 µg/mL
Nc1ncnc2c1ncn2[C@H]1CO[C@H](CO)[C@@H](O)C1 ; cell line: E6SM ; read by: cytopathic effect ; measure: EC50 ; strain or isolate: TK-/B2006 ; result: >20 µg/mL
Cc1cc([C@@H]2C[C@H](O)[C@@H](CO)O2)c(F)cc1Cl ; cell line: E6SM ; read by: cytopathic effect ; measure: EC50 ; strain or isolate: F ; result: >400 µg/mL
Nc1nc2c(ncn2CC(CO)CCO)c(=O)[nH]1 ; cell line: VERO ; read by: plaque count ; measure: EC50 ; strain or isolate: C42 ; result: 0.5 µM
Nc1nc2c(ncn2COCCO)c(=O)[nH]1 ; cell line: VERO ; read by: plaque count ; measure: EC50 ; strain or isolate: Shealey ; result: 0.7 µM
C/C(O)=C1\C(=N)N(COCCO)S(=O)(=O)N=C1N ; cell line: E6SM ; measure: EC50 ; strain or isolate: McIntyre ; result: >400 µg/mL
Nc1nc2c(ncn2CCC(CO)CO)c(=O)[nH]1 ; cell line: VERO ; read by: plaque count ; measure: EC50 ; strain or isolate: KD3 ; result: 1.7 µM
Nc1nc(=O)n([C@@H]2O[C@H](CO)[C@@H](O)[C@@H]2F)cc1I ; cell line: VERO ; read by: plaque count ; measure: EC50 ; strain or isolate: F ; result: 0.3 µM
OC[C@H]1O[C@@H](c2cc(F)c(F)cc2F)C[C@@H]1O ; cell line: E6SM ; read by: cytopathic effect ; measure: EC50 ; strain or isolate: VMW 1837 ; result: >400 µg/mL
OC[C@H]1O[C@@H](c2cc(C(O)CI)c(F)cc2F)C[C@@H]1O ; cell line: E6SM ; read by: cytopathic effect ; measure: EC50 ; strain or isolate: VMW 1837 ; result: >16 µg/mL
OC[C@H]1O[C@H](c2cc(Br)c(F)cc2F)C[C@@H]1O ; cell line: E6SM ; read by: cytopathic effect ; measure: EC50 ; strain or isolate: McIntyre ; result: >400 µg/mL
CC(=O)OC[C@H]1[C@H](COC(C)=O)[C@@H](COC(C)=O)O[C@H]1n1cnc2c(N)ncnc21 ; cell line: MEF ; read by: plaque count ; measure: EC50 ; strain or isolate: Clinical isolate HL-34 ; result: 179 µM
O=Cc1cn([C@H]2C[C@H](O)[C@@H](CO)O2)c(=O)[nH]c1=O ; cell line: PRK ; read by: cytopathic effect ; measure: EC50 ; strain or isolate: VEO231 ; result: 1 µg/mL
Cc1cc([C@H]2C[C@H](O)[C@@H](CO)O2)c(F)cc1F ; cell line: E6SM ; read by: cytopathic effect ; measure: EC50 ; strain or isolate: F ; result: >400 µg/mL
C[C@@H](c1ccccc1)N(CC(=O)Nc1ccc(-c2csc(N)n2)cc1)C(=O)c1ccncc1 ; cell line: BHK-21/C13 ; read by: plaque count ; measure: EC50 ; strain or isolate: F ; result: 0.09 µM

5 of the rows above, restated:

smiles,cell line,read by,measure,strain or isolate,result
Cc1cc([C@@H]2C[C@H](O)[C@@H](CO)O2)c(F)cc1Cl,E6SM,cytopathic effect,EC50,F,>400 µg/mL
O=C(NCc1ccc(Cl)cc1)c1c[nH]c2ccc(C#CCO)cc2c1=O,-,plaque count,EC50,Patton,18 µM
[N-]=[N+]=NCc1cn([C@H]2C[C@H](O)[C@@H](CO)O2)c(=O)[nH]c1=O,PRK,cytopathic effect,EC50,VEO231,10 µg/mL
OC[C@H]1O[C@@H](c2cc(F)c(F)cc2F)C[C@@H]1O,E6SM,cytopathic effect,EC50,VMW 1837,>400 µg/mL
C[C@@H](c1ccccc1)N(CC(=O)Nc1ccc(-c2csc(N)n2)cc1)C(=O)c1ccncc1,BHK-21/C13,plaque count,EC50,F,0.09 µM